Assay results taken from US6001988.
Construct, isoform or probe ends are uncertain for at least one entry.

molecular target: Concanavalin A (succinylated) (Canavalia ensiformis) (UniProt P02866); assay: filter binding; settings: 2'-NH2 all C and U; <5% bound at 1 uM protein; purified native protein; protein details: succinylated, E Y Laboratories; label: 32P

Kd, > 20 µM:
GGGAAAAGCGAAUCAUACACAAGAAAGGGAUGGGAUUGGGACGAGCGGCCAAGACUCGGCGGGAACGAAGGGUCCGCUCCGCCAGAGACCAACCGAGAA [6.8]
GGGAAAAGCGAAUCAUACACAAGACGGCUGUGUGGUGUUGGAGCGUCAUAGUAGGAGUCGUCACGAACCAAGGCGCUCCGCCAGAGACCAACCGAGAA [11.24]
GGGAAAAGCGAAUCAUACACAAGAUUGGUCGUACUGGACAGAGCCGUGGUAGAGGGAUUGGGACAAAGUGUCAGCUCCGCCAGAGACCAACCGAGAA [11.20]
